Assays:
[1] = Metal corrosion inhibition in brake fluid A, brass; conditions: 100°±2° C., 120±2 hours, blank -0.20
[2] = Metal corrosion inhibition in brake fluid A, tin-plate; conditions: 100°±2° C., 120±2 hours, blank -0.15
[3] = Metal corrosion inhibition in brake fluid A, cast iron; conditions: 100°±2° C., 120±2 hours, blank -0.14
[4] = Metal corrosion inhibition in brake fluid A, steel; conditions: 100°±2° C., 120±2 hours, blank -0.20
[5] = Metal corrosion inhibition in brake fluid A, copper; conditions: 100°±2° C., 120±2 hours, blank +0.18
[6] = Metal corrosion inhibition in brake fluid A, aluminum; conditions: 100°±2° C., 120±2 hours, blank +0.07
[7] = Table 5, carboxylate derivatives […] by weight in brake fluid A
[8] = Table 4, azaalkenelactams […] by weight in brake fluid A

| SMILES | Weight change, brass [1, 7] | Weight change, tin-plate [2, 7] | Weight change, cast iron [3, 7] | Weight change, steel [4, 7] | Weight change, copper [5, 7] | Weight change, aluminum [6, 7] | Weight change, brass [1, 8] | Weight change, tin-plate [2, 8] | Weight change, cast iron [3, 8] | Weight change, steel [4, 8] | Weight change, copper [5, 8] | Weight change, aluminum [6, 8] |
| --- | --- | --- | --- | --- | --- | --- | --- | --- | --- | --- | --- | --- |
| CCCCCCCCCCCCCCCCCCCCC(O)CNCCNCCN1CCC[N+](CC(=O)[O-])=C(C)CC1=O (stereo not drawn) [1-(2-hydroxy)docosylaminoethylaminoethyl-4-methyl-1-aza-5-azoniacyclooct-4-en-2-one-5-acetate] | -0.02 mg/cm^2 | -0.03 mg/cm^2 | -0.02 mg/cm^2 | -0.03 mg/cm^2 | -0.01 mg/cm^2 | +0.01 mg/cm^2 |  |  |  |  |  |  |
| CCCCCCCCCCCCCCCCCCCCCC(=O)OCCN1CC[N+](CC(=O)[O-])=CCCC1=O [4-behenoyloxyethyl-4-aza-1-azoniacyclooct-8-en-5-one-1-acetate] | 0 mg/cm^2 | -0.01 mg/cm^2 | -0.02 mg/cm^2 | -0.02 mg/cm^2 | -0.01 mg/cm^2 | +0.01 mg/cm^2 |  |  |  |  |  |  |
| CCCCCCCCCCCCCCNCCN1CCN=CCC(C)C1=O (stereo not drawn) [Example 65, 4-tetradecylaminoethyl-6-methyl-2,3,6,7-tetrahydro-1,4-diazocin-5-one] |  |  |  |  |  |  | -0.01 mg/cm^2 | 0 mg/cm^2 | -0.01 mg/cm^2 | -0.01 mg/cm^2 | -0.01 mg/cm^2 | 0 mg/cm^2 |
| CCCCCCCC(=O)OCCN1CCN=C(C)CC1=O [Example 24, 4-octoyloxyethyl-7-methyl-3,6-dihydro-2H-1,4-diazepin-5-one] |  |  |  |  |  |  | -0.02 mg/cm^2 | -0.01 mg/cm^2 | 0 mg/cm^2 | -0.01 mg/cm^2 | +0.01 mg/cm^2 | +0.01 mg/cm^2 |
| CC1=NCCN(CC(C)OCC(C)OCC(C)OCc2ccc(C)cc2)C(=O)C1 (stereo not drawn) [Example 39, 4-methylbenzylpoly(2moles)oxypropyleneoxypropyl-7-methyl-3,6-dihydro-2H-1,4-diazepin-5-one] |  |  |  |  |  |  | -0.02 mg/cm^2 | 0 mg/cm^2 | -0.01 mg/cm^2 | -0.01 mg/cm^2 | +0.02 mg/cm^2 | +0.02 mg/cm^2 |
| CCCCCCCCCCCCOCC(O)CN1CCC[N+](C(C)C(=O)[O-])=C(C)CC1=O (stereo not drawn) [1-docoxy(2-hydroxy)propyl-4-methyl-1-aza-5-azoniacyclooct-4-en-2-one-5-propionate] | -0.02 mg/cm^2 | -0.02 mg/cm^2 | -0.01 mg/cm^2 | -0.02 mg/cm^2 | -0.01 mg/cm^2 | 0 mg/cm^2 |  |  |  |  |  |  |
| CCCCCCCCCCCCNCCN1CCN=C(C)CC1=O [Example 2, 4-dodecylaminoethyl-7-methyl-3,6-dihydro-2H-1,4-diazepin-5-one] |  |  |  |  |  |  | -0.01 mg/cm^2 | 0 mg/cm^2 | 0 mg/cm^2 | -0.01 mg/cm^2 | 0 mg/cm^2 | 0 mg/cm^2 |
| CCCCCCCCCCCCNCCNCCNCCCN1CCC[N+](CC(=O)[O-])=C(C)CC1=O [1-dodecylaminoethylaminoethylaminopropyl-4-methyl-1-aza-5-azoniacyclooct-4-en-2-one-5-acetate] | 0 mg/cm^2 | -0.01 mg/cm^2 | -0.01 mg/cm^2 | -0.02 mg/cm^2 | -0.01 mg/cm^2 | +0.02 mg/cm^2 |  |  |  |  |  |  |
| CCCCCCCCCCCCCCCCCCNCCCN1CCCN=C(C)CC1=O [Example 37, 1-octadecylaminopropyl-4-methyl-3,6,7,8-tetrahydro-1,5-diazocin-2-one] |  |  |  |  |  |  | -0.03 mg/cm^2 | -0.01 mg/cm^2 | -0.01 mg/cm^2 | 0 mg/cm^2 | +0.03 mg/cm^2 | +0.01 mg/cm^2 |
| CCCCCCCCCCC(O)CN1CCN=C(C)CC1=O (stereo not drawn) [Example 26, 4-(2-hydroxy)dodecyl-7-methyl-3,6-dihydro-2H-1,4-diazepin-5-one] |  |  |  |  |  |  | -0.01 mg/cm^2 | 0 mg/cm^2 | -0.02 mg/cm^2 | -0.01 mg/cm^2 | +0.03 mg/cm^2 | +0.01 mg/cm^2 |
| CCCCCCCCCCCCCCCCN1CC[N+](CC(=O)[O-])=C(C)CC1=O [4-hexadecyl-7-methyl-1-azonia-4-azacyclohept-7-en-5-one-1-acetate] | 0 mg/cm^2 | -0.01 mg/cm^2 | -0.01 mg/cm^2 | -0.02 mg/cm^2 | 0 mg/cm^2 | 0 mg/cm^2 |  |  |  |  |  |  |
| CCCCCCCCCCCCC(O)CNCCN1CC[N+](CC(=O)[O-])=C(C)CC1=O (stereo not drawn) [4-(2-hydroxytetradecyl)aminoethyl-7-methyl-1-azonia-4-azacyclohept-7-en-5-one-1-acetate] | 0 mg/cm^2 | -0.02 mg/cm^2 | -0.01 mg/cm^2 | -0.03 mg/cm^2 | -0.01 mg/cm^2 | +0.01 mg/cm^2 |  |  |  |  |  |  |
| CCCCCCCCCc1ccc(OCCOCCN2CCC[N+](CC(=O)[O-])=C(C)CC2=O)cc1 [1-nonylphenylpoly(2 moles)oxyethyleneoxyethyl-4-methyl-1-aza-5-azoniacyclooct-4-en-2-one-5-acetate] | -0.01 mg/cm^2 | -0.02 mg/cm^2 | -0.02 mg/cm^2 | -0.03 mg/cm^2 | 0 mg/cm^2 | +0.01 mg/cm^2 |  |  |  |  |  |  |
| CCCCCCCCCCCC(=O)NCCN1CC[N+](CC(=O)[O-])=C(C)CC1=O [4-lauramidoethyl-7-methyl-1-azonia-4-azacyclohept-7-en-5-one-1-acetate] | -0.01 mg/cm^2 | -0.03 mg/cm^2 | -0.02 mg/cm^2 | -0.03 mg/cm^2 | 0 mg/cm^2 | +0.01 mg/cm^2 |  |  |  |  |  |  |
| CCCCCCCCCCCC(=O)OCCN1CCN=C(C)CC1=O [Example 12, 4-lauroyloxyethyl-7-methyl-3,6-dihydro-2H-1,4-diazepin-5-one] |  |  |  |  |  |  | -0.02 mg/cm^2 | 0 mg/cm^2 | 0 mg/cm^2 | -0.01 mg/cm^2 | +0.02 mg/cm^2 | 0 mg/cm^2 |
| CCCCCCC(O)CC=CCCCCCCCC(=O)OC(C)CN1CCC[N+](CC(=O)[O-])=C(C)CC1=O (stereo not drawn) | -0.01 mg/cm^2 | -0.03 mg/cm^2 | -0.01 mg/cm^2 | -0.01 mg/cm^2 | -0.01 mg/cm^2 | 0 mg/cm^2 |  |  |  |  |  |  |
| CCCCCCCCCCCCCCNCCN1CC[N+](CC(=O)[O-])=C(C)CC1=O [4-tetradecylaminoethyl-7-methyl-1-azonia-4-azacyclohept-7-en-5-one-1-acetate] | 0 mg/cm^2 | -0.01 mg/cm^2 | -0.01 mg/cm^2 | -0.02 mg/cm^2 | 0 mg/cm^2 | 0 mg/cm^2 |  |  |  |  |  |  |
